In patent US20170327565A1 (published 2017):

Target: purified recombinant ectodomain of H5 HA (A/Vietnam/1203/2004, Clade1) (influenza A/Vietnam/1203/2004 (H5N1), UniProt Q8QPL1 17-531)
Assay: ELISA

B1: V4-17 (antibody, V domains shown)
VH: QLQLQESGPGLVKPSETLSLTCTVSGGSITRNSYFWGWIRQPPGKGLEWIGSMYYDGTTYHNPSLKSRLTLSADTSKNQFSVRLSSVTAADTAVYYCARHHVTELRVLEWLPKSDY
VL: QSVLTQPPSASGTPGQRVTISCSGSSSNIGTYYVHWYQHLPGTAPKLLIYDNNQRPSGVPDRFSGSKSGTSASLAISGLRSEDEADYHCAAWDDSLSGVV
Q: Does B1 bind?
A: Result: no binding
